# Share of PSTVd stem 3 variants by leaf site

Values reported by Wu et al. 2024 (doi:10.1371/journal.ppat.1012142).

PSTVd intermediate strain, stem 3: wild type GUGGUUCCGGAACCGC, pool pattern GUGGUUCCGNANNCNN; upper and lower strand joined, each 5' to 3', the first 8 letters being the upper strand.

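Three N. benthamiana plants were inoculated with the whole mutant pool. Samples came from the inoculated region at 5 days, the leaf margin at 10 and upper systemic leaves at 12.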

Numbers give reads per thousand; 0 = not seen among the reads, higher = more abundant. Each site shows the three plants. "Pool" is the share in the plasmid pool used as inoculum, on the same scale. The inoculated region was read from the minus strand, the other sites from the plus strand. Wild type was 17.3 per thousand in the pool and the most common sequence in every sample (inoculated region 330, 345, 235; leaf margin 794, 766, 816; systemic leaves 830, 792, 869). Samples held 27,691 to 54,225 reads, so the smallest values rest on one or two reads. The authors trace changes outside the varied positions to PCR and sequencing errors or to mutation in the plant; presence does not show that a variant is infectious alone.

| sequence | pool | inoculated region | leaf margin | systemic leaves |
|---|---|---|---|---|
| GUGGUUCCGAAAUCAU | 1.09 | 0.906 / 0.712 / 0.622 | 1.93 / 1.05 / 0.325 | 1.21 / 1.31 / 1.09 |
| GUGGUUCCGAAAUCCA | 0.616 | 2.03 / 1.68 / 2.22 | 0.425 / 0 / 0.903 | 0 / 0 / 0 |
| GUGGUUCCGAAAUCCC | 0.816 | 0.773 / 0.690 / 0.730 | 0.0283 / 0.0318 / 0.325 | 0 / 0 / 0 |
| GUGGUUCCGAAAUCCG | 0.954 | 0.666 / 0.776 / 0.757 | 0 / 0 / 0 | 0 / 0 / 0 |
| GUGGUUCCGAAAUCCU | 0.739 | 0.800 / 0.625 / 0.784 | 0 / 0.954 / 0.289 | 0 / 0 / 0 |
| GUGGUUCCGAAAUCGA | 1.12 | 1.04 / 1.01 / 0.703 | 0.0283 / 0.0318 / 0 | 0 / 0.0184 / 0.0243 |
| GUGGUUCCGAAAUCGC | 0.846 | 0.720 / 0.582 / 0.946 | 0 / 0 / 0 | 0 / 0 / 0 |
| GUGGUUCCGAAAUCGG | 1.12 | 1.28 / 0.561 / 1.11 | 0.0283 / 0.0318 / 0.108 | 0 / 0 / 0 |
| GUGGUUCCGAAAUCGU | 0.923 | 0.826 / 0.539 / 0.865 | 0 / 0.859 / 0.217 | 0 / 0 / 0 |
| GUGGUUCCGAAAUCUA | 1.43 | 1.04 / 1.08 / 1.38 | 0 / 0 / 0.0361 | 0 / 0 / 0 |
| GUGGUUCCGAAAUCUC | 1.18 | 1.01 / 0.496 / 1.05 | 0 / 0 / 0 | 0.149 / 0 / 0 |
| GUGGUUCCGAAAUCUG | 0.908 | 0.666 / 0.668 / 0.946 | 0.0283 / 0 / 0 | 0 / 0 / 0 |
| GUGGUUCCGAAAUCUU | 1.46 | 1.33 / 1.06 / 1.24 | 1.76 / 1.34 / 0.397 | 1.21 / 1.40 / 0.803 |
| GUGGUUCCGAACACAA | 1.57 | 1.01 / 0.819 / 1.00 | 0 / 0 / 0.0722 | 0 / 0 / 0 |
| GUGGUUCCGAACACAC | 0.693 | 0.826 / 0.647 / 1.11 | 0 / 0 / 0.469 | 0 / 0 / 0 |
| GUGGUUCCGAACACAG | 1.35 | 1.25 / 1.01 / 1.08 | 0 / 0.0636 / 0.0361 | 0 / 0 / 0.0243 |
| GUGGUUCCGAACACAU | 0.862 | 1.09 / 0.733 / 0.594 | 0.0283 / 1.05 / 0.578 | 0 / 0 / 0 |
| GUGGUUCCGAACACCA | 1.37 | 0.426 / 0.561 / 0.324 | 0 / 0 / 0 | 0.0373 / 0 / 0 |
| GUGGUUCCGAACACCC | 1.06 | 0.320 / 0.345 / 0.189 | 0 / 0.0318 / 0.0361 | 0 / 0 / 0 |
| GUGGUUCCGAACACCG | 0.785 | 0.666 / 0.712 / 0.784 | 0.170 / 0.0318 / 0.325 | 0 / 0 / 0 |
| GUGGUUCCGAACACCU | 0.970 | 0.746 / 0.625 / 0.730 | 0 / 1.50 / 0.361 | 0 / 0 / 0 |
| GUGGUUCCGAACACGA | 1.05 | 0.426 / 0.388 / 0.270 | 0 / 0 / 0 | 0 / 0 / 0 |
| GUGGUUCCGAACACGC | 0.677 | 0.400 / 0.431 / 0.297 | 0 / 0 / 0.0361 | 0 / 0 / 0 |
| GUGGUUCCGAACACGG | 0.846 | 0.426 / 0.323 / 0.432 | 0 / 0 / 0.0722 | 0 / 0 / 0 |
| GUGGUUCCGAACACGU | 0.877 | 0.826 / 0.819 / 0.919 | 0.0283 / 0 / 0.108 | 0 / 0 / 0 |
| GUGGUUCCGAACACUA | 0.754 | 0.187 / 0.388 / 0.135 | 0 / 0 / 0.0361 | 0 / 0 / 0 |
| GUGGUUCCGAACACUC | 1.31 | 0.560 / 0.539 / 0.567 | 0.0283 / 0.0636 / 0.0361 | 0.112 / 0 / 0 |
| GUGGUUCCGAACACUG | 0.954 | 0.373 / 0.367 / 0.216 | 0 / 0.0636 / 0 | 0 / 0 / 0 |
| GUGGUUCCGAACACUU | 1.03 | 1.07 / 0.582 / 0.622 | 0 / 1.27 / 0.397 | 0 / 0 / 0 |
| GUGGUUCCGAACAGGA | 1.22 | 0.293 / 0.367 / 0.243 | 0.0283 / 0 / 0 | 0.112 / 0.0369 / 0 |
| GUGGUUCCGAACCCAA | 0.923 | 0.800 / 0.453 / 0.946 | 0 / 0 / 0 | 0 / 0 / 0 |
| GUGGUUCCGAACCCAC | 0.816 | 0.666 / 0.582 / 1.05 | 0 / 0.0318 / 0.542 | 0 / 0 / 0 |
| GUGGUUCCGAACCCAG | 0.769 | 0.746 / 0.561 / 0.973 | 0.0283 / 0 / 0.361 | 0 / 0 / 0 |
| GUGGUUCCGAACCCAU | 0.939 | 0.800 / 0.539 / 0.892 | 0 / 0 / 0.0361 | 0 / 0 / 0 |
| GUGGUUCCGAACCCCA | 0.939 | 0.453 / 0.302 / 0.216 | 0 / 0.0318 / 0.0361 | 0 / 0 / 0 |
| GUGGUUCCGAACCCCC | 0.816 | 0.480 / 0.539 / 0.243 | 0.0283 / 0.0318 / 0 | 0 / 0 / 0 |
| GUGGUUCCGAACCCCG | 0.985 | 0.240 / 0.216 / 0.486 | 0.0283 / 0 / 0.0361 | 0 / 0 / 0 |
| GUGGUUCCGAACCCCU | 0.785 | 0.826 / 0.625 / 0.919 | 0 / 0 / 0.181 | 0 / 0 / 0 |
| GUGGUUCCGAACCCGA | 0.954 | 0.426 / 0.302 / 0.243 | 0 / 0.0318 / 0.0361 | 0 / 0 / 0 |
| GUGGUUCCGAACCCGC | 0.754 | 0.613 / 0.280 / 0.189 | 0 / 0 / 0 | 0 / 0 / 0 |
| GUGGUUCCGAACCCGG | 0.739 | 0.426 / 0.323 / 0.324 | 0 / 0 / 0.0361 | 0 / 0 / 0 |
| GUGGUUCCGAACCCGU | 0.708 | 0.693 / 0.776 / 0.919 | 0 / 0 / 0.361 | 0 / 0 / 0 |
| GUGGUUCCGAACCCUA | 0.939 | 0.426 / 0.410 / 0.162 | 0 / 0 / 0 | 0 / 0 / 0 |
| GUGGUUCCGAACCCUC | 1.29 | 0.586 / 0.668 / 0.649 | 0 / 0.0318 / 0 | 0 / 0.0738 / 0 |
| GUGGUUCCGAACCCUG | 0.769 | 0.480 / 0.410 / 0.216 | 0 / 0 / 0.0361 | 0 / 0 / 0 |
| GUGGUUCCGAACCCUU | 0.954 | 0.800 / 0.690 / 0.622 | 0 / 1.30 / 0.397 | 0.0186 / 0 / 0 |
| GUGGUUCCGAACGCAA | 0.785 | 1.31 / 0.992 / 1.86 | 0.340 / 0.0954 / 0.975 | 0 / 0 / 0 |

The last 5 entries again:

- GUGGUUCCGAACCCUA (pool 0.939) -> inoculated region 0.426 / 0.410 / 0.162; leaf margin 0 / 0 / 0; systemic leaves 0 / 0 / 0
- GUGGUUCCGAACCCUC (pool 1.29) -> inoculated region 0.586 / 0.668 / 0.649; leaf margin 0 / 0.0318 / 0; systemic leaves 0 / 0.0738 / 0
- GUGGUUCCGAACCCUG (pool 0.769) -> inoculated region 0.480 / 0.410 / 0.216; leaf margin 0 / 0 / 0.0361; systemic leaves 0 / 0 / 0
- GUGGUUCCGAACCCUU (pool 0.954) -> inoculated region 0.800 / 0.690 / 0.622; leaf margin 0 / 1.30 / 0.397; systemic leaves 0.0186 / 0 / 0
- GUGGUUCCGAACGCAA (pool 0.785) -> inoculated region 1.31 / 0.992 / 1.86; leaf margin 0.340 / 0.0954 / 0.975; systemic leaves 0 / 0 / 0